Construct, isoform or probe ends are uncertain for at least one entry. At least one verdict rests on a figure or table, not on a statement of the authors. Where a protein sequence is shown, tags need not be part of it.
Key:
[1] = biological target: T1, Mtb-RNase J 1-470/D85A (Mycobacterium tuberculosis H37Rv) (UniProt P9WGZ9); assay: EMSA; conditions: 0.5 uM RNA, reference for 1-450/D85A; recombinant protein; residues 1-470; protein details: N-terminal 6xHis-SUMO, removed by ULP1
T1 sequence (looked up): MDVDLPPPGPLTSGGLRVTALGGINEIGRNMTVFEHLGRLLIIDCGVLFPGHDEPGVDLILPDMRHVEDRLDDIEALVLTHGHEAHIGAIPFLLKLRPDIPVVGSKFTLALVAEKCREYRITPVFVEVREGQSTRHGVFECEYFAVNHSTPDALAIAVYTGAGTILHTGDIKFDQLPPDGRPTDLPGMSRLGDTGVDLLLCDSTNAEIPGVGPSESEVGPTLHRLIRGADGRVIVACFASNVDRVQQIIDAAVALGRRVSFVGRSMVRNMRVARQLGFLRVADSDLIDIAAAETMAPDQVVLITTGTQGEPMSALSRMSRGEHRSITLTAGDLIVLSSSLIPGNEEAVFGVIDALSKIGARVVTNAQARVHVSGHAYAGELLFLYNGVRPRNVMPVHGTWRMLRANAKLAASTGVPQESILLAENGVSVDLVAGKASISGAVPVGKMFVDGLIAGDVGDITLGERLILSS

[2] = biological target: T2, Mtb-RNase J D85A (catalytically inactive) (Mycobacterium tuberculosis H37Rv) (UniProt P9WGZ9); assay: EMSA; conditions: 0.5 uM RNA; recombinant protein; residues 1-558; protein details: N-terminal 6xHis-SUMO, removed by ULP1
T2 sequence (looked up): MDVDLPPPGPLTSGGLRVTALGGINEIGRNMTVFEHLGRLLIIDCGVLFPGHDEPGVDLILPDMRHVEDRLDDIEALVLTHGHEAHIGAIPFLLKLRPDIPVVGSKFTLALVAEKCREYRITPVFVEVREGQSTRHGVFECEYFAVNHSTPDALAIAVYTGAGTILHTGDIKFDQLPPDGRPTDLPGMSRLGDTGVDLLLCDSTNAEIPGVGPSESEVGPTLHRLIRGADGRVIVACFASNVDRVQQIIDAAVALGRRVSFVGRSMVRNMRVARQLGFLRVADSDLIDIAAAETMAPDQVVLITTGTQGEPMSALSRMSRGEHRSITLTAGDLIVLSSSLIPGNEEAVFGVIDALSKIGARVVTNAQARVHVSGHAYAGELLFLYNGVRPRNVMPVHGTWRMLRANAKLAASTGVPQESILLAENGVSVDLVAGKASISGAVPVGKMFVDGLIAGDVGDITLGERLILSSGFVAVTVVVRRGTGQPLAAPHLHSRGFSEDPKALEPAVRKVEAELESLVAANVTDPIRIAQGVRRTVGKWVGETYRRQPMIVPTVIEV

UUCCGUUUAUUCAUACUUCA: binds [1]; binds [2].

— paper PMC10119312, “Structural insights into RNase J that plays an essential role in Mycobacterium tuberculosis RNA metabolism” (Nature Communications, 2023)
